Source: patent US20030119019 (published 2003)

Experiments:
[1] = molecular target: T1, GST::P55-93 (PrP peptide) (Syrian golden hamster, UniProt P04273 P04273:55-93); experiment: EMSA; 5:1 protein:RNA
T1 chain: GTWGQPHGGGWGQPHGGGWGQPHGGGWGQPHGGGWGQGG

[2] = molecular target: T2, GST::P90-109 (PrP peptide) (Syrian golden hamster, UniProt P04273 P04273:90-109); experiment: EMSA; 5:1 protein:RNA
T2 chain: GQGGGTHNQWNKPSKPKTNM

[3] = molecular target: T3, GST::P218-231 (PrP peptide) (Syrian golden hamster, UniProt P04273 P04273:218-231); experiment: EMSA; 5:1 protein:RNA
T3 chain: YQKESQAYYDGRRS

[4] = molecular target: T4, GST::bovP93-120 (PrP peptide) (Bos taurus, UniProt P10279 P10279:93-120); experiment: EMSA; 10:1 protein:RNA
T4 chain: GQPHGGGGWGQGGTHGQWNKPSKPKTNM

Measured: binding result

B1: Ap1 motif I 60mer (ssRNA)
RNA: GCAAUGCGUUGUGUGGGAAUUUGAGGGACGAUGGGGAAGUGGGGACGAAUGACUCAUUGC
no binding: [1] | [2] | [3]

B2: Ap2 motif II (ssRNA)
RNA: GGAGCUCAGCCUUCACUGCUACCUUAGAGUAGGAGCGGGACGAGGGGUUGUUGGGACGUGGGUAUGAUCCAUACAUUAGGAAGCUGGUGAGCUGGCACCACGGUCGGAUCCAC
no binding: [4] | [1] | [2] | [3]
